Measurements published in patent publication US6143715A (priority 1998, dated 2000).
Strings that start with PEPTIDE1 are HELM notation: dots part the residues, brackets hold end groups and non-standard residues.

Test: peptide synthesis

Substance | step yield (coupling step) | step yield (late stage modification step) | final HPLC purity (late stage modification step)
PEPTIDE1{[ac].D.[dE].I.V.[Hyp(4-Bn)].[Nva].[NHBn]}$$$$V2.0 | 89% | 39% | 98.5%
PEPTIDE1{[ac].D.[dE].I.V.[Hyp(4-Bn)].[Nva].[S-NHCHMePh]}$$$$V2.0 | – | – | 99.9%
PEPTIDE1{[ac].D.[dE].I.V.[Hyp(4-Bn)].[azaNva].[S-NHCHMePh]}$$$$V2.0 | – | 27% | 98%
